# Measurements published in patent US9617289B2, “RSV antiviral compounds” (JANSSEN R&D IRELAND, priority 2012, dated 2017).
# Some results come without the dose or concentration used.
# Tested on: HeLa cells
# Assay: Cytotoxicity in HeLa cells (ATP content, ATPlite kit); SI calculated as CC50/EC50
# Type: cell-based
# Details: SI is calculated as CC50/EC50, three days
Compound,SI_TOX-HELA_wt,SI
"CC(=O)NS(=O)(=O)N1CCC2(CC1)C(=O)N(Cc1nc3cc(Cl)ccc3n1CCCC#N)c1cnccc12 [Compound 95, N-[(1′-{[5-Chloro-1-(3-cyanopropyl)-1H-benzimidazol-2-yl]methyl}-2′-oxo-1′,2′-dihydro-1H-spiro[piperidine-4,3′-pyrrolo[2,3-c]pyridin]-1-yl)sulfonyl]acetamide]",>1.255e+006,
"N#CCCCn1c(CN2C(=O)C3(CNC3)c3ccccc32)cc2cc(Cl)ccc21 [Compound 59, 4-{5-chloro-2-[(2′-oxospiro[azetidine-3,3′-indol]-1′(2′H )-yl)-methyl]-1H-indol-1-yl}butanenitrile]",,14980
"N#CCCCn1c(CN2C(=O)C3(CN(S(=O)(=O)c4ccc(F)cc4)C3)c3ccccc32)nc2cc(Cl)ccc21 [Compound 93, 4-[5-Chroro-2-({1-[(4-fluorophenyl)sulfonyl]-2′-oxospiro-[azetidine-3,3′-indol]-1′(2′H)-yl}methyl)-1H-benzimidazol-1-yl]butanenitrile]",>62290.2,
"CC(C)(C)OC(=O)N1CCC2(CC1)C(=O)N(Cc1cc3ccccc3n1CCCC(F)(F)F)c1cnccc12 [Compound 113, tert-Butyl 2′-oxo-1′-{[1-(4,4,4-trifluorobutyl)-1H-indol-2-yl]methyl}-1′,2′-dihydro-1H-spiro[piperidine-4,3′-pyrrolo[2,3-c]pyridine]-1-carboxylate]",>1507.51,
"CCOP(=O)(OCC)N1CCC2(CC1)C(=O)N(Cc1nc3cc(Cl)ccc3n1CCCC#N)c1cnccc12 [Compound 115, Diethyl (1′-{[5-chloro-1-(3-cyanopropyl)-1H-benzimidazol-2-yl]methyl}-2′-oxo-1′,2′-dihydro-1H-spiro[piperidine-4,3′-pyrrolo[2,3-c]pyridin]-1-yl)phosphonate]",>1.455e+006,
"N#CCCCn1c(CN2c3ccccc3[C@]3(C[C@@H](OC(=O)NC4CC4)C3)C2=O)nc2cc(Cl)ccc21 [Compound 173, (1r,3r)-1′-((5-chloro-1-(3-cyanopropyl)-1H-benzo[d]imidazol-2-yl)methyl)-2′-oxospiro[cyclobutane-1,3′-indolin]-3-yl cyclopropylcarbamate]",2178763,
"CC(C)(O)C(=O)N1CC2(C1)C(=O)N(Cc1nc3cc(Cl)ccc3n1CCCS(C)(=O)=O)c1ccccc12 [Compound 6, 1′-({5-chloro-1-[3-(methylsulfonyl)propyl]-1H-benzimidazol-2-yl}methyl)-1-(2-hydroxy-2-methylpropanoyl)spiro[azetidine-3,3′-indol]-2′(1′H)-one]",,>220491
"CC(C)(C)OC(=O)N1CCC2(CC1)C(=O)N(Cc1cc3cc(Cl)ccc3n1CCCS(C)(=O)=O)c1cnccc12 [Compound 1, tert-butyl 1′-({5-chloro-1-[3-(methylsulfonyl)propyl]-1H-indol-2-yl}methyl)-2′-oxo-1′,2′-dihydro-1H-spiro [piperidine-4,3′-pyrrolo[2,3-c]pyridine]-1-carboxylate]",,19370
"CC(C)(C)OC(=O)N1CCC2(CC1)C(=O)N(Cc1cc3nc(Cl)ccc3n1CCCCF)c1cnccc12 [Compound 69, tert-butyl 1′-((5-chloro-1-(4-fluorobutyl)-1H-pyrrolo[3,2-b]-pyridin-2-yl)methy)-2′-oxo-1′,2′-dihydrospiro[piperidine-4,3′-pyrrolo[2,3-c]pyridine]-1-carboxylate]",,4891
"N#CCCCn1c(CN2C(=O)C3(CCN(C(=O)C(O)(C(F)(F)F)C(F)(F)F)CC3)c3ccncc32)nc2cc(Cl)ccc21 [Compound 181, 4-[5-Chloro-2-({2′-oxo-1-[3,3,3-trifluoro-2-hydroxy-2-(trifluoromethyl)propanoyl]spiro[piperidine-4,3′-pyrrolo[2,3-c]pyridin]-1′(2′H)-yl}methyl)-1H-benzimidazol-1-yl]butanenitrile]",271188,
"CNC(=O)OC1CC2(C1)C(=O)N(Cc1nc3cc(Cl)ccc3n1CCCS(C)(=O)=O)c1ccccc12 [Compound 104, (1R,3R)-1′-((5-chloro-1-(3-(methylsulfonyl)propyl)-1H-benzo[d]imidazol-2-yl)methyl)-2′-oxospiro[cyclobutane-1,3′-indoline]-3-yl methylcarbamate]",3927534,
"CC(=O)NS(=O)(=O)N1CC2(C1)C(=O)N(Cc1nc3cc(Cl)ccc3n1CCCC#N)c1ccccc12 [Compound 170, N-[(1′-{[5-Chloro-1-(3-cyanopropyl)-1H-benzimidazol-2-yl]methyl}-2′-oxo-1′,2′-dihydro-1H-spiro[azetidine-3,3′-indol]-1-yl)sulfonyl]acetamide]",>370143,
"CC(C)(C)OC(=O)N1CCC2(CC1)C(=O)N(Cc1c(C(N)=O)c3cc(Cl)ccc3n1CCCCF)c1cnccc12 [Compound 156, tert-Butyl 1′-{[3-carbamoyl-5-chloro-1-(4-fluorobutyl)-1H-indol-2-yl]methyl}-2′-oxo-1′,2′-dihydro-1H-spiro[piperidine-4,3′-pyrrolo[2,3-c]pyridine]-1-carboxylate]",178008,
COC(=O)N1CCC2(CC1)C(=O)N(Cc1cc3cc(Cl)ccc3n1CCCC#N)c1cnccc12 [Compound 76],,>263057
"CC(C)(O)C(=O)N1CC2(C1)C(=O)N(Cc1cc3cc(Cl)ccc3n1CCCC#N)c1ccccc12 [Compound 73, 4-(5-chloro-2-((1-(2-hydroxy-2-methylpropanoyl)-2′-oxospiro[azetidine-3,3′-indolin]-1′-yl)methyl)-1H-indol-1-yl)butanenitrile]",,51488
"N#CCCCn1c(CN2C(=O)C3(CCN(S(N)(=O)=O)CC3)c3ccncc32)nc2cc(Cl)ccc21 [Compound 89, 1′-((5-chloro-1-(3-cyanopropyl)-1H-benzo[d]imidazol-2-yl)-methyl)-2′-oxo-1′,2′-dihydrospiro[piperidine-4,3′-pyrrolo-[2,3-c]pyridine]-1-sulfonamide]",,>124385
"CC(=O)NS(=O)(=O)N1CCC2(CC1)C(=O)N(Cc1cc3cc(Cl)ccc3n1CCCC#N)c1cnccc12 [Compound 172, N-[(1′-{[5-Chloro-1-(3-cyanopropyl)-1H-indol-2-yl]methyl}-2′-oxo-1′,2′-dihydro-1H-spiro[piperidine-4,3′-pyrrolo[2,3-c]pyridin]-1-yl)sulfonyl]acetamide]",>1.515e+006,
"CS(=O)(=O)CCCn1c(CN2C(=O)C3(CNC3)c3ccccc32)cc2cc(Cl)ccc21 [Compound 134, 1′-({5-Chloro-1-[3-(methylsulfonyl)propyl]-1H-indol-2-yl}methyl)spiro[azetidine-3,3′-indol]-2′(1′H)-one]",21330,
"O=C(Oc1ccc(F)cc1)N1CC2(C1)C(=O)N(Cc1nc3cc(Cl)ccc3n1CCCC(F)(F)F)c1ccccc12 [Compound 43, 4-fluorophenyl 1′-((5-chloro-1-(4,4,4-trifluorobutyl)-1H-benzo[d]imidazol-2-yl)methyl)-2′-oxospiro[azetidine-3,3′-indoline]-1-carboxytale]",,>419527
"O=C1N(Cc2nc3nc(Cl)ccc3n2CCCC(F)(F)F)c2cnccc2C12CCCC2 [Compound 65, 1′-((5-chloro-1-(4,4,4-trifluorobutyl)-1H-imidazo[4,5-b]-pyridin-2-yl)methyl)spiro[cyclopentane-l,3′-pyrrolo[2,3-c]-pyridin]-2′(1′H)-one]",,158245
"CS(=O)(=O)CCCn1c(CN2C(=O)C3(CN(c4cccnc4)C3)c3ccccc32)nc2cc(Cl)ccc21 [Compound 7, 1′-({5-chloro-1-[3-(methylsulfonyl)propyl]-1H-benzimidazol-2-yl}methyl)-1-(pyridin-3-yl)spiro[azetidine-3,3′-indol]-2′(1′H)-one]",,>3.591e+006
N#CCCCn1c(CN2C(=O)C3(CN(S(=O)(=O)c4cccs4)C3)c3ccccc32)nc2cc(Cl)ccc21 [Compound 91],>428924,
O=C1N(Cc2cc3cc(Cl)ccc3n2CCCCF)c2cnccc2C12CCNCC2 [Compound 162],2405,
"CS(=O)(=O)CCCn1c(CN2C(=O)C3(CCN(S(=O)(=O)C4CC4)CC3)c3ccccc32)nc2cc(Cl)ccc21 [Compound 35, 1-({5-chloro-1-[3-(methylsulfonyl)propyl]-1H-benzimidazol-2-yl}methyl)-1′-(cyclopropylsulfonyl)-spiro[indole-3,4′-piperidin]-2(1H)-one]",,65535
"N#CCCCn1c(CN2C(=O)C3(CCN(C(=O)OCCO)CC3)c3ccncc32)cc2cc(Cl)ccc21 [Compound 147, 2-Hydroxyethyl 1′-{[5-chloro-1-(3-cyanopropyl)-1H-indol-2-yl]methyl}-2′-oxo-1′,2′-dihydro-1H-spiro[piperidine-4,3′-pyrrolo[2,3-c]pyridine]-1-carboxylate]",872087,
"N#CCCCn1c(CN2C(=O)C3(CN(S(=O)(=O)C4CC4)C3)c3ccccc32)cc2cc(Cl)ccc21 [Compound 61, 4-(5-chloro-2-{[1-(cyclopropylsulfonyl)-2′-oxospiro-[azetidine-3,3′-indol]-1′(2′H)-yl]methyl}-1H-indol-1-yl)-butanenitrile]",,>241324
"O=C1N(Cc2nc3cc(Cl)ccc3n2CCCC(F)(F)F)c2ccccc2C12CCOCC2 [Compound 52, 1-((5-chloro-1-(4,4,4-trifluorobutyl)-1H-benzo[d]imidazol-2-yl)methyl)-2′,3′,5′,6′-tetrahydrospiro[indoline-3,4′-pyran]-2-one]",,22757
"CS(=O)(=O)CCCn1c(CN2C(=O)C3(CN(S(=O)(=O)C4CC4)C3)c3ccccc32)nc2cc(Cl)ccc21 [Compound 29, 1′-({5-chloro-1-[3-(methylsulfonyl)propyl]-1H-benzimidazol-2-yl}methyl)-1-(cyclopropylsulfonyl)-spiro[azetidine-3,3′-indol]-2′(1′H)-one]",,>660861
"CC(C)(O)C(=O)N1CCC2(C1)C(=O)N(Cc1nc3cc(Cl)ccc3n1CCCC#N)c1ccccc12 (centres unmarked) [Compound 154, 4-(5-Chloro-2-{[1′-(2-hydroxy-2-methylpropanoyl)-2-oxospiro[indole-3,3′-pyrrolidin]-1(2H)-yl]methyl}-1H-benzimidazol-1-yl)butanenitrile]",>85767,
